According to patent US20230346916A1:

Target: bat ACE2 (bACE2) receptor transiently expressed on 293T cells (bat)

Q: “SARS-CoV-2 RBD-Fc fusion protein (residues 331-524 of SARS-CoV-2 S protein with a C-terminal Fc of human IgG1)” was tested. Which EC50 did it give?
A: The EC50 was 0.08 µg/mL.
